Compound potency records, mixed from different reports. Data source: NIAID ChemDB in PubChem.

All rows: growth or infection tests; agent: Hepatitis B virus; cell line: HepG2.117; endpoint: EC50

Two numbers with a dash give a range or band. ECn is the concentration giving n% inhibition of infection, replication or growth. Neighbouring rows are from separate reports. Blank or dashed fields: not listed here.

| SMILES | method | setting | value |
|---|---|---|---|
| C[C@@H](NC(=O)c1c2n(c(=O)n1-c1ccc(OC3CC3)cc1)CCN(C(=O)c1ccc(Br)c(Cl)c1)C2)c1ccc(OCC(N)=O)cc1F | PCR | - | 0.5–5 µM |
| O=C(c1ccc(Br)c(Cl)c1)N1CCS(=O)(=O)[C@](F)(c2ncc(Cc3ccccc3)s2)C1 | PCR | - | <0.1 µM |
| NC(=O)c1ccc(-n2c(=O)c3c(n4ncc(NCc5ccccc5)c24)CN(C(=O)c2ccc(Br)c(Cl)c2)CC3)cc1 | PCR | 3 d | <0.1 µM |
| CC(C)[C@@H](N)C(=O)OCN(C)C(=O)c1ccc(-n2c(=O)c3c(n4ncc(CC5CC5)c24)CN(C(=O)c2ccc(Br)c(C(F)(F)F)c2)C(C)C3)cc1 | luminescence | - | 0.5–5 µM |
| Cc1cnn2c3c(c(=O)n(-c4ccccc4)c12)CCN(C(=O)c1ccc(Br)c(Cl)c1)C3 | PCR | 3 d | 0.1–0.5 µM |
| O=C(NCc1ccccc1-c1ncc[nH]1)c1c2n(c(=O)n1-c1ccc(OCC(F)(F)F)cc1)CCN(C(=O)c1ccc(Br)c(Cl)c1)C2 | PCR | - | <0.1 µM |
| COc1ccc(-n2c(=O)c3c(n4ncc(Nc5ccccc5)c24)CN(C(=O)c2ccc(Br)c(Cl)c2)CC3)cc1 | PCR | 3 d | <0.1 µM |
| O=C(c1ccc(Br)c(Cl)c1)N1CCS(=O)(=O)[C@](F)(C(=O)NCCc2ccccc2)C1 | PCR | - | >5 µM |
| C[C@@H]1Cc2c(n3ncc(CC4CC4)c3n(-c3ccc(-c4nc(=O)on4C)cc3)c2=O)CN1C(=O)c1ccc(Br)c(C(F)(F)F)c1 | luminescence | - | ≤0.05 µM |
| O=C(NCc1ccccc1-c1cccnn1)c1c2n(c(=O)n1-c1ccc(OC3CC3)cc1)CCN(C(=O)c1ccc(Br)c(Cl)c1)C2 | PCR | - | <0.1 µM |
| COc1cccc(-n2c(=O)c3c(n4ncc(NCc5ccccc5)c24)CN(C(=O)c2ccc(Br)c(Cl)c2)CC3)c1 | PCR | 3 d | 0.1–0.5 µM |
| C[C@H](c1cnc([C@]2(F)CN(C(=O)c3ccc(Br)c(C#N)c3)CCS2(=O)=O)s1)c1ccccc1F | PCR | - | 0.5–5 µM |
| CNC(=O)c1ccc(-n2c(=O)c3c(n4ncc(CC5CC5)c24)CN(C(=O)c2ccc(Br)c(Cl)c2)[C@@H](C)C3)cc1 | luminescence | - | ≤0.05 µM |
| C[C@@H](c1cnc([C@]2(F)CN(C(=O)c3ccc(Br)c(C#N)c3)CCS2(=O)=O)s1)c1ccccc1F | PCR | - | 0.5–5 µM |
| Cn1c(=O)c2c(n3nccc13)CN(C(=O)Nc1ccc(F)c(Cl)c1)CC2 | PCR | 3 d | 0.5–5 µM |
| C[C@H]1Cc2c(n3ncc(Cc4ccccc4)c3n(-c3ccc(-c4nn[nH]n4)cc3)c2=O)CN1C(=O)c1ccc(Br)c(C(F)(F)F)c1 | luminescence | - | >5 µM |
| C[C@@H]1Cn2c(c3n(c2=O)C[C@@H](F)CN(Cc2ccccc2)C3=O)CN1C(=O)c1ccc(Br)c(Cl)c1 | PCR | - | 0.1–0.5 µM |
| O=C(c1ccc(Br)c(Cl)c1)N1CCc2c(n3ncc(Cc4ccccc4)c3n(-c3ccc(-n4cccn4)cc3)c2=O)C1 | luminescence | - | ≤0.05 µM |
| CNC(=O)c1ccc(-n2c(=O)c3c(n4ncc(Cc5ccccc5)c24)CN(C(=O)c2ccc(Br)c(Cl)c2)CC3)cc1Cl | PCR | 3 d | <0.1 µM |
| O=C(c1ccc(Br)c(Cl)c1)N1CCS(=O)(=O)C(c2nc(Cc3ccccc3)cs2)C1 | PCR | - | 0.1–0.5 µM |
| C[C@@H]1Cc2c(n3ncc(Cc4ccccc4)c3n(-c3ccc(-c4n[nH]c(=O)n4C)cc3)c2=O)CN1C(=O)c1ccc(Br)c(C(F)(F)F)c1 | luminescence | - | ≤0.05 µM |
| O=C(NCc1ccccc1-n1cncn1)c1c2n(c(=O)n1-c1ccc(OCC(F)(F)F)cc1)CCN(C(=O)c1ccc(Br)c(Cl)c1)C2 | PCR | - | <0.1 µM |
| CNC(=O)c1cc(-n2c(=O)c3c(n4ncc(Cc5ccccc5)c24)CN(C(=O)c2ccc(Br)c(C(F)(F)F)c2)CC3)nn1C | luminescence | - | ≤0.05 µM |
| CNC(=O)c1ccc(-n2c(=O)c3c(n4ncc(Cc5ccc(F)cc5)c24)CN(C(=O)c2ccc(Br)c(C#N)c2)CC3)cc1 | PCR | 3 d | <0.1 µM |
| O=C(c1ccc(Cl)c(Cl)c1)N1CCS(=O)(=O)C(c2nccs2)C1 | PCR | - | 0.5–5 µM |
| O=C(NCc1ccc(OC(F)(F)F)cc1F)c1c2n(c(=O)n1-c1ccc(OC3CC3)cc1)CCN(C(=O)c1ccc(Br)c(Cl)c1)C2 | PCR | - | 0.5–5 µM |
| COc1ccc(-n2c(=O)c3c(n4ncc(Cc5ccccc5)c24)CN(C(=O)c2ccc(Cl)c(Cl)c2)CC3)cc1 | PCR | 3 d | 0.1–0.5 µM |

Repeating the first 3 entries:

SMILES | method | setting | value
C[C@@H](NC(=O)c1c2n(c(=O)n1-c1ccc(OC3CC3)cc1)CCN(C(=O)c1ccc(Br)c(Cl)c1)C2)c1ccc(OCC(N)=O)cc1F | PCR | - | 0.5–5 µM
O=C(c1ccc(Br)c(Cl)c1)N1CCS(=O)(=O)[C@](F)(c2ncc(Cc3ccccc3)s2)C1 | PCR | - | <0.1 µM
NC(=O)c1ccc(-n2c(=O)c3c(n4ncc(NCc5ccccc5)c24)CN(C(=O)c2ccc(Br)c(Cl)c2)CC3)cc1 | PCR | 3 d | <0.1 µM